According to publication PMC6899670 (The Febs Journal, 2019):

Experiments:
[1] = system: Nc1ncnc2c1ncn2[C@@H]1O[C@H](COP(=O)(O)OP(=O)(O)OP(=O)(O)O)[C@@H](O)[C@H]1O; assay: purified protein; conditions: pH 8.0; 30.0 °C
C[C@@H](N)C(=O)O = assay: purified protein; conditions: pH 8.0; 30.0 °C

“BpDdl (Burkholderia pseudomallei D-alanine-D-alanine ligase) (Burkholderia pseudomallei K96243)” showed a Km [1] of 70 ± 10 µM and a Km (C[C@@H](N)C(=O)O) of 370 ± 85 µM.
